# Source: PubChem BioAssay AID1053175 (ICCB-Longwood Screening Facility, Harvard Medical School, 2014)
# The list shows a part of the results, in another mix than the full data. The source made the active and inactive calls.
# Experiment: antibacterial activity against Escherichia coli – OD600, primary screen (AID 1053175)
# Settings: Escherichia coli growth, OD600, 23 h; hits give low values
row,Compound,OD600 absorbance
1,Cc1cccc(NC2(C#N)CCN(Cc3ccccc3)CC2)c1,inactive: 0.675
2,CSc1ccccc1C(=O)NCC1(N2CCCCC2)CCCCC1,inactive: 0.618
3,O=C(NCC1(N2CCCCC2)CCCCC1)c1cccs1,inactive: 0.654
4,O=C(NCC1(N2CCCCC2)CCCCC1)c1ccc(=O)[nH]c1,inactive: 0.707
5,CC(C)(C)OC(=O)N1CCC(N(C(=O)c2ccccc2)c2ccc(F)cc2)CC1,inactive: 0.644
6,COc1ccc(C(=O)NCC2(N3CCCCC3)CCCCC2)c(OC)c1OC,inactive: 0.707
7,COc1ccc(C(=O)NCC2(N3CCCCC3)CCCCC2)cc1,inactive: 0.662
8,CCOC(=O)N1CCC(Nc2ccc(OC)cc2)CC1,inactive: 0.681
9,COc1ccc(Cl)cc1C(=O)NCC1(N2CCOCC2)CCCCC1,inactive: 0.671
10,O=C(NCC1(N2CCCCC2)CCCCC1)c1ccc(Cl)s1,inactive: 0.668
11,N#CC1(Nc2ccccc2)CCN(Cc2ccccc2)CC1,inactive: 0.598
12,O=C(OC1CN2CCC1CC2)C1c2ccccc2Oc2ccccc21 (stereo not given),inactive: 0.654
13,O=C(NCC1(N2CCOCC2)CCCCC1)c1cc2ccccc2o1,inactive: 0.702
14,Cc1cc(C)cc(N(C(=O)c2ccccc2)C2CCN(C(=O)OC(C)(C)C)CC2)c1,inactive: 0.69
15,O=C(NCC1(N2CCCCC2)CCCCC1)c1ccc(Cl)nc1,inactive: 0.65
16,CCOC(=O)N1CCC(Nc2ccc(F)cc2)CC1,inactive: 0.691
17,COc1ccc(NC2CCN(CCc3ccccc3)CC2)c(OC)c1,inactive: 0.65
18,CCCCOc1ccc(C(=O)NCC2(N3CCOCC3)CCCCC2)cc1,inactive: 0.645
19,O=P1(N(CCCl)CCCl)SCCCS1,inactive: 0.65
20,O=C(NCC1(N2CCCCC2)CCCCC1)c1ccc(F)cc1,inactive: 0.717
21,CCOc1ccc(C)cc1CN(CCCl)CCCl,inactive: 0.681
22,CCOC(=O)N1CCC(Nc2cccc(C)c2)CC1,inactive: 0.718
23,COc1cc(C(=O)NCC2(N(C)C)CCCCC2)ccc1OC(F)F,inactive: 0.676
24,O=C(NCC1(N2CCCCC2)CCCCC1)c1cccc([N+](=O)[O-])c1,inactive: 0.649

row,Compound,OD600 absorbance
1,CSc1ccc(C(=O)NCC2(N3CCOCC3)CCCCC2)cc1,inactive: 0.651
2,N#CC1(Nc2ccccc2)CCN(CCc2ccccc2)CC1,inactive: 0.696
3,CCN1CCC(Nc2ccc(Cl)cc2)CC1,inactive: 0.712
4,O=C(NCC1(N2CCCCC2)CCCCC1)c1ccc(OC(F)F)cc1,inactive: 0.7
5,CC(C)c1ccc(C(=O)NCC2(N3CCOCC3)CCCCC2)cc1,inactive: 0.674
6,COc1ccc(NC2CCN(C(=O)OC(C)(C)C)CC2)cc1,inactive: 0.7
7,CN1CCN(CCOC(=O)C(O)(c2ccccc2)c2ccccc2)CC1,inactive: 0.668
8,O=C(NCC1(N2CCOCC2)CCCCC1)c1cc(=O)[nH]c2ccccc12,inactive: 0.695
9,COc1cc(C(=O)NCC2(N3CCCCC3)CCCCC2)ccc1OC(F)F,inactive: 0.67
10,O=C(NCC1(N2CCCCC2)CCCCC1)c1cccc(C(F)(F)F)c1,inactive: 0.682
11,O=C(NCC1(N2CCOCC2)CCCCC1)c1cc(F)c(F)cc1Cl,inactive: 0.708
12,COc1cc(OC)c(C(=O)NCC2(N(C)C)CCCCC2)cc1OC,inactive: 0.666
13,CN(C)c1cccc(C(=O)NCC2(N3CCCCC3)CCCCC2)c1,inactive: 0.728
14,COc1ccc(CN(CCCl)CCCl)cc1Cl,inactive: 0.689
15,CC(C)c1ccc(NC2CCN(C(=O)OC(C)(C)C)CC2)cc1,inactive: 0.691
16,CCCOc1ccc(C(=O)NCC2(N(C)C)CCCCC2)cc1OC,inactive: 0.697
17,O=C(NCC1(N2CCCCC2)CCCCC1)c1cncc(Br)c1,inactive: 0.674
18,COc1ccc(C(=O)NCC2(N3CCOCC3)CCCCC2)cc1OC,inactive: 0.668
19,O=C(NCC1(N2CCOCC2)CCCCC1)c1cc(Br)ccc1Cl,inactive: 0.689
20,COc1cc(C(=O)NCC2(N3CCOCC3)CCCCC2)cc(OC)c1C,inactive: 0.676
21,CCc1cc(C(=O)NCC2(N3CCCCC3)CCCCC2)sc1C,inactive: 0.674
22,O=C(OC1CN2CCC1CC2)C1c2ccccc2C=Cc2ccccc21 (stereo not given),inactive: 0.738
23,CCOC(=O)N1CCC(Nc2ccc(C)cc2)CC1,inactive: 0.618
24,CC(C)(C)OC(=O)N1CCC(N(C(=O)c2ccccc2)c2ccc(Cl)cc2)CC1,inactive: 0.677

row,Compound,OD600 absorbance
1,N#Cc1ccc(C(=O)NCC2(N3CCCCC3)CCCCC2)cc1,inactive: 0.71
2,CCCN1CCC(Nc2cc(OC)cc(OC)c2)CC1,inactive: 0.676
3,c1ccc(CN2CCC(Nc3ccccc3)CC2)cc1,inactive: 0.746
4,CN(C)C1(CNC(=O)c2cccc(C#N)c2)CCCCC1,inactive: 0.667
5,Cc1ccc(NC2(C#N)CCN(Cc3ccccc3)CC2)cc1,inactive: 0.643
6,Fc1ccccc1NC1CCN(Cc2ccccc2)CC1,inactive: 0.66
7,Cc1ccc(C(=O)NCC2(N3CCCCC3)CCCCC2)o1,inactive: 0.634
8,COc1cc(OC)cc(C(=O)NCC2(N3CCCCC3)CCCCC2)c1,inactive: 0.683
9,CC(=O)N(c1ccccc1)C1CCNCC1,inactive: 0.642
10,CN(C)c1ccc(C(=O)NCC2(N3CCCCC3)CCCCC2)cc1,inactive: 0.642
11,Cn1c(=O)[nH]cc(N(CCCl)CCCl)c1=O,inactive: 0.713
12,O=C(NCC1(N2CCCCC2)CCCCC1)c1ccco1,inactive: 0.689
13,CCN1CCC(Nc2cccc(F)c2)CC1,inactive: 0.712
14,Cc1ccccc1NC1(C#N)CCN(Cc2ccccc2)CC1,inactive: 0.666
15,CCCOc1ccc(C(=O)NCC2(N(C)C)CCCCC2)cc1,inactive: 0.67
16,O=C(O)C1(Nc2ccccc2)CCN(Cc2ccccc2)CC1,inactive: 0.66
17,CC(C)(C)OC(=O)N1CCC(Nc2ccccc2)CC1,inactive: 0.668
18,CN1CCC(Nc2ccc(F)c(Cl)c2)CC1,inactive: 0.616
19,CCOc1ncccc1C(=O)NCC1(N2CCOCC2)CCCCC1,inactive: 0.622
20,CN1CCC(Nc2ccc(Cl)cc2)CC1,inactive: 0.661
21,COc1cccc(C(=O)N(c2cc(C)cc(C)c2)C2CCN(C(=O)OC(C)(C)C)CC2)c1,inactive: 0.678
22,COc1cc(OC)cc(C(=O)NCC2(N3CCOCC3)CCCCC2)c1,inactive: 0.673
